# Values quoted from earlier work, collected in paper PMC6153800, “Structure-Based Drug Design and Characterization of Sulfonyl-Piperazine Benzothiazinone Inhibitors of DprE1 from Mycobacterium tuberculosis” (Antimicrobial Agents and Chemotherapy, 2018).
# Protein sequences, listed by entry. Tags and fused reporters are not part of them.
# UniProt P9WJF1, whole entry: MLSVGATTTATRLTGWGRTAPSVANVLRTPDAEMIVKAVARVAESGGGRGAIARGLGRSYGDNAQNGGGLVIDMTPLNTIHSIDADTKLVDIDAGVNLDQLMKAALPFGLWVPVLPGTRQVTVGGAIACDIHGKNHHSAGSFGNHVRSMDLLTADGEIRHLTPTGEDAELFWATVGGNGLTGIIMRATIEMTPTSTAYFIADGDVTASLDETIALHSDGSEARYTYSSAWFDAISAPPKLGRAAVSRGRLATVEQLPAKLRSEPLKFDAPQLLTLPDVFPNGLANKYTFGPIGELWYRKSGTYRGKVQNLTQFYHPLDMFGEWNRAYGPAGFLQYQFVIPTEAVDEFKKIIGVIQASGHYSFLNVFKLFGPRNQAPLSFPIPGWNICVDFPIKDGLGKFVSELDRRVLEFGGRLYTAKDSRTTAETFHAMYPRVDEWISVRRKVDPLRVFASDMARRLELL
# Target: wild-type M. tuberculosis DprE1 (Mycobacterium tuberculosis, UniProt P9WJF1)
# Details: read-out: IC50 WT DprE1; wild-type enzyme; ref (1) Foo et al. 2016; cited from earlier work
smiles,measurement,value
COc1ccc(CNc2nc3cc(C(F)(F)F)ccc3nc2C(=O)O)cc1,IC50,200 nM
